Results on two compounds are retold here after patent publication US3958000A, “Fungicidal 2-arylthio-, 2-alkylthio- and 2-haloalkylthio-1,2,4-oxadiazolidine-3,5-diones” (Chevron Research Company, priority 1975, dated 1976).

Molecules are shown by their SMILES.

Common to all, as to format: cell-based
What all share (details): Conc. 10 ppm, overnight in moist chamber

One experiment deals with Botrytis cinerea. The experiment in a line: Fungal spore control (spore slide-germination) against Botrytis cinerea.
In the next experiment the test system is Alternaria solani. The experiment in a line: Fungal spore control (spore slide-germination) against Alternaria solani.
In another experiment the test system is Monolinia fructicola. The experiment in a line: Fungal spore control (spore slide-germination) against Monolinia fructicola.

For the compound `O=c1on(SC(Cl)(Cl)C(Cl)Cl)c(=O)n1C1CCCCC1`, the figures for the “% Control (percent inhibition of germination of fungus spores)” value in the experiment with Botrytis cinerea, in the experiment with Alternaria solani and in the experiment with Monolinia fructicola were 100%, 99% and 100%, respectively.

In the case of `CC(C)n1c(=O)on(SC(Cl)(Cl)C(Cl)Cl)c1=O`, the figures for the “% Control (percent inhibition of germination of fungus spores)” value in the experiment on Botrytis cinerea, in the experiment on Alternaria solani and in the experiment on Monolinia fructicola were 100%, 99% and 10%, respectively.
